Measured values: patent US20160264648A1 (OSAKA UNIVERSITY, published 2016)

B1: human monoclonal antibody (HuMAb) 2H5 (antibody, V domains shown)
VH: QVQLVQSGAEVKKPGSSVKVSCKSSGGNFNNYAVSWVRQAPGQGLEWMGGISPIFGSTNHAQKFQGRVTISADIFTNTAYMELSSLRSDDTAIYYCARGRGYYFYHAMDVWGQGSTVTVSS
VL: QSVLTQPPSVSAAPGQKVTISCSGSSSNIGHNFVSWYQQLPATAPKLLIYDTDKRPSGIPDRFSGSKSGTSATLGITGLQTGDEADYYCGTWDSSLSSVIFGGGTKLTVL
B2: human monoclonal antibody (HuMAb) 1H11 (antibody, V domains shown)
VH: B1 VH
VL: QSALTQPASVSGSPGQSITISCTGTSSDVGGYNYVSWYQQHPGEAPKLMISDVSNRPSGVSNRFSGSKSGNTASLTISGLQAEDEADYYCTSYTSSNTLVFGGGTKLTVL

Target: hemagglutinin (HA) of influenza A virus A/California/07/2009 (H1N1pdm) (influenza A virus A/California/07/2009 …)
Assay: cell-based or functional assay

Binder | Neutralization activity (VN50 value µg/ml) [µg/mL]
B1 | 2.82
B2 | 1.52
